Results of unrelated studies side by side (data: NIAID ChemDB).

Shared fields: enzyme or target tests; species: HIV-1; target: Integrase; endpoint: IC50

ICn: concentration for n% inhibition. Conditions beyond the fields shown may differ between rows. An empty or dashed field is not shown.

compound | mutations | read by | value
O=C=Nc1cc(S(=O)(=O)c2ccc(Cl)c(N=C=O)c2)ccc1Cl | - | strand transfer | 90 µM
Cc1ccc(S(=O)(=O)n2cc(C(=O)/C=C3\OC(C)(C)OC3=O)c3cc(Br)ccc32)cc1 | G140S | strand transfer / fluorescence | 4.7 µM
CC(=O)c1cc(S(=O)(=O)c2ccc(O)c(C(C)=O)c2)ccc1O | - | 3′ processing | >100 µM
Cc1coc2c1[C@H]1C=C(CC[C@@H]3O[C@]3(C)C2)C(=O)O1 | - | - | >100 µM
Cc1ccc(S(=O)(=O)n2cc(C(C(=O)O)C(=O)O)c3cc(NC(=O)c4ccc(F)cc4)ccc32)cc1 | - | strand transfer / fluorescence | >25 µM
CN(C)CCCNC(=O)c1cc(NC(=O)c2cc(NC(=O)c3cc(NC(=O)c4cccc(C(=O)Nc5cc(C(=O)Nc6cc(C(=O)Nc7cc(C(=O)NCCCN(C)C)n(C)c7)n(C)c6)n(C)c5)n4)cn3C)cn2C)cn1C | - | 3′ processing | 100 µM
COC(=O)C(=O)c1c(-c2ccc(O)c(OC)c2)[nH]c2[nH]n(-c3ccccc3)c(=O)c2c1=O | - | 3′ processing | >250 µM
CN(C)CCCNC(=O)c1cc(NC(=O)c2cc(NC(=O)c3cc(NC(=O)c4cnccc4C(=O)O)cn3C)cn2C)cn1C | - | disintegration | >100 µM
O=C(O)C(=O)/C=C(\O)c1cn(Cc2cc(F)ccc2F)c2ccc(Br)cc12 | G140S | strand transfer / fluorescence | 9.2 µM
CCC(CCl)NC(=O)Nc1ccc(S(=O)(=O)c2ccc([N+](=O)[O-])cc2)cc1 | - | strand transfer | >100 µM
CC(=O)Oc1cccc2c1C(=O)C1CC(O)C(O)C3OC(C)(C)OC2(C)C13 | - | 3′ processing | 118 µM
O=[N+]([O-])c1ccc(S(=O)(=O)c2ccc([N+](=O)[O-])cc2C(F)(F)F)c(C(F)(F)F)c1 | - | strand transfer | >100 µM
Nc1ncnc(N)c1NC(=O)c1ccc(Cl)c([N+](=O)[O-])c1 | - | 3′ processing | >250 µM
C=C1C2[C@@H](O)C3=C(C)C(=O)OC3([C@@]34C[C@]5(C)C(C(=C)[C@H]6C[C@H]65)[C@@H](O)C3=C(C)C(=O)O4)C[C@@]2(C)[C@@H]2C[C@H]12 | - | - | >100 µM
O=[N+]([O-])c1cc(S(=O)(=O)c2ccc(O)c([N+](=O)[O-])c2)ccc1O | - | 3′ processing | >100 µM
Cn1cc(NC(=O)c2cc(NC(=O)c3cc(NC(=O)CCCCCCC(=O)Nc4cc(C(=O)Nc5cc(C(=O)Nc6cc(C(=O)NCCC(=N)N)n(C)c6)n(C)c5)n(C)c4)cn3C)cn2C)cc1C(=O)NCCC(=N)N | - | 3′ processing | 0.09 µM
COC(=O)C(=O)c1c(C(=O)OC)nc2nnc(N)n2c1-c1ccc(O)c(OC)c1 | - | 3′ processing | 48 µM
O=C(O)C(C(=O)O)c1c[nH]c2ccc([N+](=O)[O-])cc12 | Y143R | strand transfer / fluorescence | 23.5 µM
CCCCCCCCCCCCCCCCOC(=O)C(CCSC)NCNc1ccc(S(=O)(=O)c2ccc(NCNC(CCSC)C(=O)OCCCCCCCCCCCCCCCC)cc2)cc1 | - | strand transfer | >100 µM
N=C(N)c1ccc(-c2cc3ccc(C(=N)N)cc3[nH]2)cc1 | - | 3′ processing | >100 µM
COc1cc2c(cc1O)C[C@@H]1NCCc3cc(O)c(OC)c-2c31 | - | - | 7.7 µM
O=NNc1ccc(S(=O)(=O)c2ccc(NN=O)cc2)cc1 | - | strand transfer | 6.1 µM
Nc1ccn(C2C[C@H](O)[C@@H](COP(=O)(O)O[C@H]3[C@H](n4cnc5c(N)ncnc54)CO[C@@H]3COP(=O)(O)O)O2)c(=O)n1 | - | strand transfer | 25 µM
O=S(=O)(SC(Cl)(Cl)Cl)c1cccc(S(=O)(=O)c2cccc(S(=O)(=O)SC(Cl)(Cl)Cl)c2)c1 | - | strand transfer | 21.3 µM
Cc1ccc(C(=O)Nc2ccc3c(c2)c(C(C(=O)O)C(=O)O)cn3S(=O)(=O)c2ccc(C)cc2)cc1 | G140S | strand transfer / fluorescence | >25 µM
COC(=O)c1cc(OC)c(OC)c(OC)c1-c1cc2c(cc1C=O)OCO2 | - | 3′ processing | >250 µM
Cn1cc(NC(=O)c2cc(NC(=O)CCCCCCCCCC(=O)Nc3cc(C(=O)Nc4cc(C(=O)NCCC(N)=[NH2+])n(C)c4)n(C)c3)cn2C)cc1C(=O)NCCC(N)=[NH2+] | - | 3′ processing | 37.6 µM
CC1OC2CC(=O)OC2C2=C1C(=O)c1c(O)cccc1C2=O | - | 3′ processing | 80 µM
CN(C)CCCNC(=O)c1cc(NC(=O)c2cc(NC(=O)c3cc(NC(=O)c4ccnc(C(=O)Nc5cc(C(=O)Nc6cc(C(=O)Nc7cc(C(=O)NCCCN(C)C)n(C)c7)n(C)c6)n(C)c5)c4)cn3C)cn2C)cn1C | - | disintegration | 3.7 µM
O=C1c2c(O)cc(O)c(O)c2C(=O)c2c(O)cc(O)c(O)c21 | - | 3′ processing | 1.3 µM
COc1cc2ccnc3c2c(c1OC)-c1c(ccc(O)c1OC)C3=O | - | - | >100 µM
Cc1ccc(S(=O)(=O)n2cc(/C(O)=C/C(=O)C(=O)O)c3cc(F)ccc32)cc1 | - | strand transfer / fluorescence | 1.2 µM
Cc1cc(O)c2c(c1O)C(=O)C13C(=C2O)C(=O)C2C(O)C1C1C(O)C3C(=O)C3=C(O)c4c(O)cc(C)c(O)c4C(=O)C321 | - | 3′ processing | 4.7 µM

For reference, 3 entries again:

compound | mutations | read by | value
O=[N+]([O-])c1ccc(S(=O)(=O)c2ccc([N+](=O)[O-])cc2C(F)(F)F)c(C(F)(F)F)c1 | - | strand transfer | >100 µM
O=S(=O)(SC(Cl)(Cl)Cl)c1cccc(S(=O)(=O)c2cccc(S(=O)(=O)SC(Cl)(Cl)Cl)c2)c1 | - | strand transfer | 21.3 µM
Nc1ncnc(N)c1NC(=O)c1ccc(Cl)c([N+](=O)[O-])c1 | - | 3′ processing | >250 µM